# Measurements: PubChem BioAssay AID588549 (Broad Institute, 2011)
# This is a selection; strong and weak results do not stand in their true shares. Active and inactive are the calls of the source. Rule as the data show it: active = inhibition above about 8.5% (passing the limit was not always enough); inconclusive = no clear call, values can overlap the other calls.
# System: Mycobacterium tuberculosis FadD28 fatty-acid-AMP ligase
# Test: inhibitors of FadD28 bisubstrate probe binding, primary screen, biochemical, fluorescence polarization, single point (AID 588549)
# Settings: at 12.5 µM, stronger effect = higher value
row,SMILES,inhibition
1,O=C(NCC1(N2CCCCC2)CCCCC1)c1cccc(C(F)(F)F)c1,inactive: -3.24%
2,O=C(NCC1(N2CCCCC2)CCCCC1)c1ccc(F)cc1,inactive: -4.25%
3,O=P1(N(CCCl)CCCl)SCCCS1,inactive: -1.01%
4,CCCCn1nnnc1C(c1cc2ccccc2o1)N1CCC(n2c(=O)[nH]c3ccccc32)CC1 (stereo not given),inactive: -3.28%
5,CCCCOc1ccc(C(=O)NCC2(N3CCOCC3)CCCCC2)cc1,inactive: -1.4%
6,COc1ccc(NC2CCN(CCc3ccccc3)CC2)c(OC)c1,inactive: 0.586%
7,CCOC(=O)N1CCC(Nc2ccc(F)cc2)CC1,inactive: 0.313%
8,CCOc1ccc(C)cc1CN(CCCl)CCCl,inactive: -0.149%
9,CC(C)(C)n1nnnc1C(c1ccccc1)N1CCC(n2c(=O)[nH]c3ccccc32)CC1 (stereo not given),inactive: -1.65%
10,O=C1CCN(Cc2ccccc2)CC1,inactive: -0.062%
11,O=c1[nH]c2ccccc2n1C1CCN(C(c2cccc3ccccc23)c2nnnn2C2CCCC2)CC1 (stereo not given),inactive: -2.04%
12,CCOC(=O)N1CCC(Nc2cccc(C)c2)CC1,inactive: -2.68%
13,O=c1[nH]c2ccccc2n1C1CCN(C(c2ccccc2)c2nnnn2C2CCCCC2)CC1 (stereo not given),inactive: -4.56%
14,CSc1ccccc1C(=O)NCC1(N2CCCCC2)CCCCC1,inactive: -0.187%
15,Cc1cccc(NC2(C#N)CCN(Cc3ccccc3)CC2)c1,inactive: -1.19%
16,O=C(NCC1(N2CCCCC2)CCCCC1)c1ccc(=O)[nH]c1,inactive: 1.1%
17,CCCCn1nnnc1C(c1cccs1)N1CCC(n2c(=O)[nH]c3ccccc32)CC1 (stereo not given),inactive: -1.54%
18,O=C(NCC1(N2CCCCC2)CCCCC1)c1cccs1,inactive: -0.598%
19,CCCCn1nnnc1C(CC)N1CCC(n2c(=O)[nH]c3ccccc32)CC1 (stereo not given),inactive: -0.237%
20,COc1ccc(C(=O)NCC2(N3CCCCC3)CCCCC2)cc1,inactive: -1.55%

row,SMILES,inhibition
1,CCC(c1nnnn1C1CCCC1)N1CCC(n2c(=O)[nH]c3ccccc32)CC1 (stereo not given),inactive: -3.88%
2,CC(C)(C)OC(=O)N1CCC(N(C(=O)c2ccccc2)c2ccc(F)cc2)CC1,inactive: -1.02%
3,COc1ccc(C(=O)NCC2(N3CCCCC3)CCCCC2)c(OC)c1OC,inactive: -2.49%
4,CCOC(=O)N1CCC(Nc2ccc(OC)cc2)CC1,inactive: -2.82%
5,CCCCn1nnnc1C(c1ccc(OC)cc1)N1CCC(n2c(=O)[nH]c3ccccc32)CC1 (stereo not given),inactive: 0.739%
6,O=C(OC1CN2CCC1CC2)C1c2ccccc2Oc2ccccc21 (stereo not given),inactive: -5%
7,O=c1[nH]c2ccccc2n1C1CCN(C(c2cc3ccccc3o2)c2nnnn2C2CCCCC2)CC1 (stereo not given),inactive: -0.962%
8,N#CC1(Nc2ccccc2)CCN(Cc2ccccc2)CC1,inactive: -2.64%
9,O=C(NCC1(N2CCCCC2)CCCCC1)c1ccc(Cl)s1,inactive: -2.64%
10,COc1ccc(Cl)cc1C(=O)NCC1(N2CCOCC2)CCCCC1,inactive: -0.247%
11,O=C(NCC1(N2CCOCC2)CCCCC1)c1cc2ccccc2o1,inactive: -1.19%
12,O=c1[nH]c2ccccc2n1C1CCN(C(c2ccccc2OC(F)(F)F)c2nnnn2C2CCCCC2)CC1 (stereo not given),inactive: -3.11%
13,O=C(NCC1(N2CCCCC2)CCCCC1)c1ccc(Cl)nc1,inactive: 0.141%
14,Cc1cc(C)cc(N(C(=O)c2ccccc2)C2CCN(C(=O)OC(C)(C)C)CC2)c1,inactive: -1.98%
15,CCCOc1ccc(C(=O)NCC2(N(C)C)CCCCC2)cc1,inactive: -4.34%
16,O=c1[nH]c2ccccc2n1C1CCN(C(c2cc3ccccc3o2)c2nnnn2C2CCCC2)CC1 (stereo not given),inactive: -2.33%
17,CC(C)(C)OC(=O)N1CCC(Nc2ccccc2)CC1,inactive: -1.1%
18,O=C(O)C1(Nc2ccccc2)CCN(Cc2ccccc2)CC1,inactive: -0.768%
19,CCOc1ncccc1C(=O)NCC1(N2CCOCC2)CCCCC1,inactive: -1.63%
20,CN1CCC(Nc2ccc(F)c(Cl)c2)CC1,inactive: -0.819%

row,SMILES,inhibition
1,CN1CCC(Nc2ccc(Cl)cc2)CC1,inactive: 1.15%
2,CCC(CO)(C(=O)OC1CN2CCC1CC2)c1ccccc1 (stereo not given),inactive: -1.43%
3,COc1cccc(C(c2nnnn2C2CCCC2)N2CCC(n3c(=O)[nH]c4ccccc43)CC2)c1OC (stereo not given),inactive: -3.28%
4,COc1cc(OC)cc(C(=O)NCC2(N3CCOCC3)CCCCC2)c1,inactive: -3.86%
5,COc1cccc(C(=O)N(c2cc(C)cc(C)c2)C2CCN(C(=O)OC(C)(C)C)CC2)c1,inactive: -1.55%
6,Cc1ccc(NC2(C#N)CCN(Cc3ccccc3)CC2)cc1,inactive: -1.09%
7,Cc1ccc(C(=O)NCC2(N3CCCCC3)CCCCC2)o1,inactive: -3.8%
8,Fc1ccccc1NC1CCN(Cc2ccccc2)CC1,inactive: 0.461%
9,O=c1[nH]c2ccccc2n1C1CCN(C(c2ccnc3ccccc23)c2nnnn2C2CCCCC2)CC1 (stereo not given),inactive: -1.92%
10,COc1cc(OC)cc(C(=O)NCC2(N3CCCCC3)CCCCC2)c1,inactive: 0.354%
11,CC(=O)N(c1ccccc1)C1CCNCC1,inactive: -1.23%
12,COc1cccc(C(c2nnnn2C2CCCCC2)N2CCC(n3c(=O)[nH]c4ccccc43)CC2)c1OC (stereo not given),inactive: -5.3%
13,CCC(c1nnnn1C1CCCCC1)N1CCC(n2c(=O)[nH]c3ccccc32)CC1 (stereo not given),inactive: -2.41%
14,O=C(NCC1(N2CCCCC2)CCCCC1)c1ccco1,inactive: -1.76%
15,Cn1c(=O)[nH]cc(N(CCCl)CCCl)c1=O,inactive: -1.97%
16,CN(C)c1ccc(C(=O)NCC2(N3CCCCC3)CCCCC2)cc1,inactive: 0.134%
17,Cc1ccccc1NC1(C#N)CCN(Cc2ccccc2)CC1,inactive: -1.36%
18,CC(C)(C)n1nnnc1C(c1ccnc2ccccc12)N1CCC(n2c(=O)[nH]c3ccccc32)CC1 (stereo not given),inactive: -1.19%
19,CCN1CCC(Nc2cccc(F)c2)CC1,inactive: 1.27%
20,COc1ccc(C(c2nnnn2C2CCCCC2)N2CCC(n3c(=O)[nH]c4ccccc43)CC2)cc1 (stereo not given),inactive: -6.16%
